Pooled drug test results. Numbers come from NIAID ChemDB, via PubChem.

Common to all: growth or infection tests; organism: Semliki Forest virus; read-out: EC50

Conditions beyond the fields shown may differ between rows.

structure	read by	cells	value
N#CC1=CN(COCCO)S(=O)(=O)N=C1N	-	VERO	>400 µg/mL
NC1CCCON2CCc3c([nH]c4ccccc34)[C@H]12	cytopathic effect	VERO	7 µg/mL
CC(=O)OCCOCN1C=CC(=O)N(COCCOC(C)=O)S1(=O)=O	-	VERO	>400 µg/mL
Nc1ncnc2c1ncn2C(CF)CCCO	cytopathic effect	VERO	>400 µg/mL
Cc1cccn2c(C3OCCS3)cnc12	-	VERO	>1000 µM
C=C(N=CC)c1nc(-c2ccc(C)cc2)n(C2O[C@H](CO)[C@@H](O)[C@H](O)[C@H]2O)n1	cytopathic effect	VERO	>100 µg/mL
CC(=O)OCCOCN1C(=O)C=CN(COCCO)S1(=O)=O	-	VERO	>400 µg/mL
COc1ccc2[nH]c3c(c2c1)CCN1OCSCC(N)[C@@H]31	cytopathic effect	VERO	0.07 µg/mL
CC(=O)OCCOCN1C=CC(=O)N(COCCO)S1(=O)=O	-	VERO	>400 µg/mL
COc1cc2c(cc1OC)[C@@H]1C(N)CSCON1CC2	cytopathic effect	VERO	0.7 µg/mL
Cc1ccn2c(C3OCCS3)cnc2c1	-	VERO	>1000 µM
N=C(N)c1ncn([C@@H]2O[C@H](CO)[C@@H](O)[C@H]2O)n1	-	-	>100 µM
Cc1cn(CCCC(O)CF)c(=O)[nH]c1=O	cytopathic effect	VERO	>400 µg/mL
C=C(N=CC)c1nc(-c2cccc(C)c2)n([C@@H]2O[C@H](CO)[C@@H](O)[C@H]2O)n1	cytopathic effect	VERO	>40 µg/mL
Nc1ncnc2c1ccn2[C@@H]1C[C@H](O)[C@@H](O)[C@H]1O	-	VERO	>400 µg/mL
Cc1cn(C(CF)CCCO)c(=O)[nH]c1=O	cytopathic effect	VERO	>400 µg/mL
CC1=CC(=O)N(c2ccccc2)S(=O)(=O)N1COCCO	-	VERO	>400 µg/mL
C=C(N=CC)c1nc(-c2ccccc2)n(C2O[C@H](CO)[C@@H](O)[C@H](O)[C@H]2O)n1	cytopathic effect	VERO	>200 µg/mL
Cc1cccn2c(C3SCCS3)cnc12	-	VERO	>1000 µM

The first 2 rows once more:

structure	read by	cells	value
N#CC1=CN(COCCO)S(=O)(=O)N=C1N	-	VERO	>400 µg/mL
NC1CCCON2CCc3c([nH]c4ccccc34)[C@H]12	cytopathic effect	VERO	7 µg/mL

An empty or dashed field is not shown. ECn is the concentration giving n% inhibition of infection, replication or growth.